Reference: patent publication US5567805A, “The cellular receptor for the CS3 peptide of human immunodeficiency virus” (priority 1994, dated 1996)

How the values were obtained:
CS3 receptor = test: Flow cytometric binding of FITC labelled C-CS3-HSA to RH9 cells; design: species or system human; conditions: 100 fold excess
Method: Cysteine-CS3 (C-CS3, which has the sequence CLQARILAVERYLKDQQL) was coupled to human serum albumin as described (Ciancialo et al., 1988, Immunology Letters 19:7). A molar ratio of 10 CS3/HSA was achieved as determined by addition of trace amounts of ^125 I-CS3 to the coupling reaction. C-CS3-HSA was labelled with FITC (Harlow, 1988, in "Antibodies: A Laboratory Manual," Cold Spring Harbor Laboratories, pp. 354-355) and its binding to RH9 cells was determined with the use of Coulter Epics 753 Flow Cytometer. RH9 cells were washed with PBS 1% BSA and incubated with C-CS3-HSA or controls for 30 min. at 4° C. in a final volume of 100 μl. Cells were washed and resuspended at 10^6 cells/mi.

HIV = HIV infection of RH9 cells measured by p24 production; type: cell-based, human immunodeficiency virus; conditions: CS3-HSA 10 μg/ml, HSA 20 μg/ml, antibody 6.7 μg/ml; 4 hours exposure, 18 days
Method: RH9 cells at a concentration of 2×10^5 cells/ml were exposed to either (i) medium; (ii) HIV virus alone; (iii) HIV virus in the presence of HSA at 20 μg/ml; (iv) HIV virus and CS3-HSA at 10 μg/ml; (v) HIV virus and 6.7 μg/ml antibody specific for CS3; or (vi) HIV virus and 6.7 μg/ml CS3 depleted anti-HIV IgG; for 4 hours, then washed three times in a 100× volume of HBSS. The cells were then incubated in RPMI containing 10% serum and 20 mM HEPES, at a concentration of about 5×10^5 cells ml, for 18 days (fresh medium was added in order to keep the cell concentration relatively constant).
HIV infection was measured in terms of expression of p24 protein, as quantitated by a standard assay (e.g. the F.D.A. approved Abbott Laboratory Assay).

human serum albumin [HSA] was tested, and the “decrease in the binding of C-CS3-HSA-FITC” value (CS3 receptor) was “failed to effect a decrease in the binding” and the “inhibition of HIV infection of RH9 cells (p24 production)” value (HIV) was “inhibition was not observed”.
